Anti-infective test results gathered from many reports (values: NIAID ChemDB through PubChem).

Shared fields: tests in culture; agent: Candida albicans; read-out: MIC

Conditions beyond the fields shown may differ between rows.

smiles,strain or isolate,result
CC(=O)C(Cc1c[nH]c2ccccc12)NC(=O)C1CCCN1C(=O)C(C)C,MUCC 29,12.5 µg/mL
Clc1ccccc1C(c1ccccc1)(c1ccccc1)n1ccnc1,IEM 49/64,0.5 µg/mL
CSc1ncc([N+](=O)[O-])n1C,18 isolates,35 µg/mL
CCC(C)(C)c1ccc(CC(C)CN2C[C@@H](C)O[C@@H](C)C2)cc1,IEM 49/64,5 µg/mL
CCCCCCCC[n+]1ccccc1.[Cl-],CCH442,>400 µM
COc1cccc2c1CC(NCc1ccccc1)CC2,-,64 µM
CC(C)=CCC/C(C)=C/CCC(C)=CCCC[n+]1cccc(C)c1.Cc1ccc(S(=O)(=O)[O-])cc1,CCH442,13 µM
C[C@H]1[C@H](O)[C@@H](C)/C=C/C=C/C=C/C=C/C=C/C=C/C=C/[C@H](O[C@@H]2O[C@H](C)[C@@H](O)[C@H](N)[C@@H]2O)C[C@@H]2O[C@](O)(C[C@@H](O)C[C@@H](O)CC[C@H](O)[C@@H](O)C[C@@H](O)CC(=O)O[C@H]1C)C[C@H](O)[C@H]2C(=O)O,-,0.06 µg/mL
CC1(C)S[C@@H]2[C@H](NC(=O)[C@H](N)c3ccccc3)C(=O)N2[C@H]1C(=O)O,-,0.12 µM
CC(=O)C(C)C(C)O,MUCC 29,12.5 µg/mL
C=C[C@]1(C)C=C2c3c[nH]c4cccc(c34)C(C)(C)[C@H]2C[C@H]1O,-,>100 µM
CCCCCCCCCCCCCC[n+]1ccccc1,CCH442,10 µM
c1ccc(Nc2ccc3ccccc3c2)cc1,-,>500 µg/mL
CCCCCCCCCCCCCCNC1CCc2ccc(OC)cc2C1,-,32 µM
CCCCCCCCCOCCCC(=O)O,-,500 µM
CCC(=O)NC(CC(C)C)C(=O)NC(Cc1cnc[nH]1)C(C)=O,MUCC 29,6 µg/mL
CCCCCCCCCCCCCC(CCC(=O)O)C(CCCCCCCCCCCCC)CCC(=O)O,-,>500 µg/mL
CC(C)CCCC(C)CCCC(C)CCCC[n+]1ccc(N(C)C)cc1.O=C([O-])C(F)(F)F,CCH442,3.3 µM
CC(=O)C1CCCN1C,MUCC 29,12.5 µg/mL
Oc1ccc2c(c1)CCC(Nc1ccc(Cl)cc1)C2,-,2 µM
C[C@@H]1[C@H](O)[C@@H](C)/C=C/C=C/CC/C=C/C=C/C=C/C=C/[C@H](O[C@@H]2O[C@H](C)[C@@H](O)[C@H](N)[C@@H]2O)C[C@@H]2O[C@](O)(C[C@@H](O)[C@H](O)CC[C@@H](O)C[C@@H](O)C[C@@H](O)CC(=O)O[C@H]1C)C[C@H](O)[C@H]2C(=O)O,MTCC 227,100 µg/mL
CC1=C[C@H]2O[C@@H]3CC4OC(=O)/C=C\C=C\C(=O)OCC[C@H](C)[C@H](C)C(=O)OC[C@@]2(CC1)[C@]4(C)[C@]31CO1,-,31.25 µg/mL
COc1ccc(Oc2nc3ccc(C)cc3cc2C2C(C#N)=C(N)OC3=C2C(=O)CCC3)cc1,MTCC 227,500 µg/mL
Clc1ccc(COC(Cn2ccnc2)c2ccc(Cl)cc2Cl)c(Cl)c1,-,0.25 µg/mL
Cc1ccc(-n2nc(C)c(C3C(C#N)=C(N)OC4=C3C(=O)CC(C)(C)C4)c2Oc2ccc(Cl)cc2)cc1,MTCC 227,250 µg/mL
Cc1ccc(S(=O)(=O)[O-])cc1.c1cc[nH+]cc1,CCH442,>400 µM
COc1cc2oc(=O)ccc2cc1CC(O)C(C)(C)O,-,250 µg/mL
Cc1ccc(-n2nc(C)c(C3C(C#N)=C(N)OC4=C3C(=O)CC(C)(C)C4)c2Oc2ccccc2)cc1,MTCC 227,500 µg/mL
Nc1c(/C=N/NC(=O)c2ccncc2)cccc1CN1CCCC1,MTCC 8184,12.5 µg/mL
O=C1CCC(c2ccccc2)C(=O)N1CCCN1CCN(c2ccccc2O)CC1,DSM 1386,>100 µM
COc1ccc2c(c1)CCC(NCc1ccccc1)C2,-,32 µM
COc1ccc(Oc2c(C3C(C#N)=C(N)OC4=C3C(=O)CCC4)c(C)nn2-c2ccccc2)cc1,MTCC 227,250 µg/mL
C=C(C)CN1CC(OCC23C[C@@H]4[C@H](C)CC[C@H]4C4(C=O)CC2C=C(C(C)C)[C@@]34C(O)O)O[C@H](C)[C@@H](O)C1,2035B,0.03 µg/mL
Clc1ccc(COC(Cn2ccnc2)c2ccc(Cl)cc2Cl)cc1,IEM 49/64,5 µg/mL
CCN(CC)Cc1cccc(/C=N/NC(=O)c2ccncc2)c1N,MTCC 8184,12.5 µg/mL
C/C=C/c1ccc2oc(-c3ccc(O)cc3)c(C)c2c1,-,<256 µg/mL
COc1ccc(Oc2nc3ccc(C)cc3cc2C2C(C#N)=C(N)OC3=C2C(=O)CC(C)(C)C3)cc1,MTCC 227,1000 µg/mL
CN1CCN(Cc2cccc(/C=N/NC(=O)c3ccncc3)c2N)CC1,MTCC 8184,12.5 µg/mL
CC(=O)C(C)Cc1ccc(O)cc1,MUCC 29,6 µg/mL
CCCCCCCCCCCCCCCC(=O)N[C@H]1C[C@@H](O)[C@@H](O)NC(=O)[C@@H]2[C@@H](O)[C@@H](C)CN2C(=O)[C@H]([C@@H](C)O)NC(=O)[C@H]([C@H](O)[C@@H](O)c2ccc(O)cc2)NC(=O)[C@@H]2C[C@@H](O)CN2C(=O)[C@H]([C@@H](C)O)NC1=O,-,0.25 µg/mL
CCCCCCCCCCCCCCCC[n+]1ccccc1,CCH442,1.9 µM
COc1ccccc1N1CCN(CCCCN2C(=O)CCC(c3ccccc3)C2=O)CC1,DSM 1386,>100 µM
Cc1nn(-c2ccccc2)c(Oc2ccc(Cl)cc2)c1C1C(C#N)=C(N)OC2=C1C(=O)CC(C)(C)C2,MTCC 227,250 µg/mL
COc1ccc(Oc2nc3ccc(OC)cc3cc2C2C(C#N)=C(N)OC3=C2C(=O)CCC3)cc1,MTCC 227,250 µg/mL
C[C@@H]1[C@H](O)[C@@H](C)/C=C/C=C/CC/C=C/C=C/C=C/C=C/C(O[C@H]2O[C@H](C)[C@@H](O)[C@H](N)[C@@H]2O)CC2O[C@](O)(CC(O)C(O)CCC(O)CC(O)CC(O)CC(=O)O[C@H]1C)CC(O)C2C(=O)O,MTCC 8184,0.25 µg/mL
COc1ccc(Oc2nc3ccccc3cc2C2C(C#N)=C(N)OC3=C2C(=O)CC(C)(C)C3)cc1,MTCC 227,100 µg/mL
CCCCCCCCC[C@@H](O)[C@H](C)N,MTCC 854,37.5 µM
O=C1CCC(c2ccccc2)C(=O)N1CCCCN1CCN(c2ccccc2)CC1,DSM 1386,>100 µM
Nc1ccccc1/C=N/NC(=O)c1ccncc1,MTCC 8184,12.5 µg/mL
CCC(C)n1ncn(-c2ccc(N3CCN(c4ccc(OC[C@H]5CO[C@](Cn6cncn6)(c6ccc(Cl)cc6Cl)O5)cc4)CC3)cc2)c1=O,Isogenic isolate 9 (25X),0.015 µg/mL
O=c1cc(-c2ccccc2)oc2cc(O)c(O)c(O)c12,ATCC 64548,13 µg/mL
CC(C)=CCC/C(C)=C/CCC(C)=CCCC[n+]1ccccc1.Cc1ccc(S(=O)(=O)[O-])cc1,CCH442,26 µM
CCCCCCCCNC1CCc2cccc(OC)c2C1,-,1 µM
CC(=O)C(NC(=O)C1CCCN1C)C(C)C,MUCC 29,6 µg/mL
CC(C)=CCC/C(C)=C/CC/C(C)=C/CCCOS(=O)(=O)c1ccc(C)cc1,CCH442,>400 µM
CC(=O)N1CCN(c2ccc(OC[C@H]3CO[C@](Cn4ccnc4)(c4ccc(Cl)cc4Cl)O3)cc2)CC1,-,0.5 µg/mL
Nc1c(/C=N/NC(=O)c2ccncc2)cccc1CN1CCOCC1,MTCC 8184,1.56 µg/mL
COC1=CC(=O)C[C@@H](C)[C@]12Oc1c(Cl)c(OC)cc(OC)c1C2=O,MUCC 29,6 µg/mL

A second listing of 4 rows from above:

| smiles | strain or isolate | result |
|---|---|---|
| CSc1ncc([N+](=O)[O-])n1C | 18 isolates | 35 µg/mL |
| Cc1nn(-c2ccccc2)c(Oc2ccc(Cl)cc2)c1C1C(C#N)=C(N)OC2=C1C(=O)CC(C)(C)C2 | MTCC 227 | 250 µg/mL |
| Cc1ccc(S(=O)(=O)[O-])cc1.c1cc[nH+]cc1 | CCH442 | >400 µM |
| COc1cc2oc(=O)ccc2cc1CC(O)C(C)(C)O | - | 250 µg/mL |

Blank or dashed fields: not listed here.